Reference: US20090162353A1 (MacroGenics, published 2009)

Biological target: vaccinia virus L1 recombinant protein (vaccinia virus, UniProt P07612 1-185)

B1: Ch8AH8AL (antibody, V domains shown)
VH: EVQLVESGGGLIKPGGSLRLSCAASGFIFRDYNINWVRQAPGKGLEWLGFIRTRASGRSTEYSASVKGRFTISRDDSKNIAYLHINSLKMEDTAVYYCAKKGDSYYYMDFWGKGTAVTVSS
VL: ELALTQPASVSGSPGQSITISCTGGRSDLGDSNFVSWYQQYPGKAPKLLIYQVNKRPSGVPDRFSASKSANTASLTISGLQTEDEADYFCSSYTTTSTYVFGIGTKVVVLG
Does B1 bind?
Result: no binding (tested: 1 ug/ml)
